Measured values from several laboratories, pooled; numbers as filed in NIAID ChemDB.

Shared fields: whole-cell or culture tests; species: HIV-1; method: p24; endpoint: EC90

An empty or dashed field is not shown.

compound | strain or isolate | mutations | cell line | conditions | result
CC(C)c1nc(CN(C)C(=O)N[C@H](C(=O)N[C@@H](Cc2ccccc2)C[C@H](O)[C@H](Cc2ccccc2)NC(=O)OCc2cncs2)C(C)C)cs1 | NL4-3 | - | MT-4 | - | 0.1 µM
CC(C)(C)NC(=O)[C@@H]1C[C@@H]2CCC[C@@H]2N1C(=O)[C@@H](O)[C@H](Cc1ccccc1)NC(=O)[C@H](CC(N)=O)NC(=O)OCc1ccccc1 | RF | - | MT-2 | - | 0.151 µM
Cn1cc(C(=O)O)c(=O)c2cc(F)c(N3CC=C(c4ccccc4)CC3)c(C(F)(F)F)c21 | IIIB | - | MOLT-4/M0(HIV-1(IIIB)) + MOLT-4 | - | 1 µM
CC(C)c1c(CO)cn(Cc2ccncc2)c1Sc1ccccc1 | - | RT-Y181C | C8166 | - | >100 µM
CO[C@H]1/C=C/O[C@@]2(C)Oc3c(C)c(O)c4c(c3C2=O)C(=O)C(SCCOC(=O)CCCC(=O)OC[C@@H]2O[C@H](n3cc(C)c(=O)[nH]c3=O)C[C@H]2N=[N+]=[N-])=C(NC(=O)/C(C)=C\C=C\[C@H](C)[C@@H]2OC(C)(C)O[C@@H]([C@@H](C)[C@H](OC(C)=O)[C@@H]1C)[C@@H]2C)C4=O | IIIB | - | C8166 | - | 14 µM
CC(C)Nc1cccnc1N1CCN(C(=O)c2cc3cc(NS(C)(=O)=O)ccc3[nH]2)CC1 | IIIB | - | H9 | - | 0.045 µM
CCc1cc(NCc2nc3c(Cl)ccc(Cl)c3o2)c(=O)[nH]c1C | DLV-resistant IIIB (RT-L100I) | RT-L100I | MT-4 | - | 4 µM
Cc1cn([C@H]2C[C@H](N=[N+]=[N-])[C@@H](CO)O2)c(=O)[nH]c1=O | GKV-4046 | - | MT-4 | - | 0.35 µM
CC(C)Nc1cccnc1N1CCN(C(=O)c2cc3cc(NS(C)(=O)=O)ccc3[nH]2)CC1 | JR-CSF | - | PBMC | - | 0.04 µM
CC#CCN1C(=O)[C@H]([C@@H](O)C2CCCCC2)NC(=O)C12CCN(Cc1c(C)nn(-c3ccccc3)c1C)CC2 | JR-FL R5 | - | PBMC | - | 0.144 µM
Cc1cn([C@H]2C[C@H](N=[N+]=[N-])[C@@H](CO)O2)c(=O)[nH]c1=O | XM-ABC-resistant | RT-K65R L74V M184V Y115F | PBMC | - | 0.04 µM
C[C@@H]1CN2CCC[C@@H]3CCCCC[C@@H]4C(=O)[C@@H](C)CN5CCC[C@@H](CCCCC[C@@H](C1=O)[C@H]32)[C@H]45 | MN | - | MT-2 | - | 106.6 µM
Cc1c(O)cccc1C(=O)N[C@@H](CCc1ccccc1)[C@H](O)C(=O)N1C[C@@H](Cl)C[C@H]1C(=O)NC(C)(C)C | IIIB | - | CEM | - | 0.73 µM
CC(C)(C)NC(=O)[C@@H]1CN(Cc2cccnc2)CCN1C[C@@H](O)C[C@@H](Cc1ccccc1)C(=O)N[C@H]1c2ccccc2C[C@H]1O | BR58 (PR L10I K20R M36I/V P63L/S L90M) | PR-L10I K20R M36I/V P63L/S L90M | PBMC | - | 0.017 µM
Cc1cn([C@H]2C[C@H](N=[N+]=[N-])[C@@H](COP(=O)(OCC(C)(C)C)C(N)=O)O2)c(=O)[nH]c1=O | GKV-4046 | - | MT-4 | - | <0.22 µM
O=c1[nH]cnc2c1ncn2[C@H]1CC[C@@H](CO)O1 | Subtype B isolate | - | PBMC | - | 1.2 µM
Cc1ccc(-c2ccc3c(c2)C=C(C(=O)Nc2ccc(C[N+](C)(C)C4CCOCC4)cc2)CCC3)cc1 | BaL | - | PBMC | - | 0.408 µM
COP(=O)(OC[C@H]1O[C@@H](n2cc(C)c(=O)[nH]c2=O)C[C@@H]1N=[N+]=[N-])C(N)=O | GKV-4046 | - | MT-4 | - | >0.0026 µM
Cc1cn([C@H]2C[C@H](N=[N+]=[N-])[C@@H](CO)O2)c(=O)[nH]c1=O | NL4-3 X4 | - | PBMC | - | 0.181 µM
COC(=O)[C@H](C)NP(=O)(OC[C@@H]1C=C[C@H](n2cc(C)c(=O)[nH]c2=O)O1)Oc1ccc(Br)cc1 | IIIB | - | PBMC | - | 0.0097 µM
Cc1cc(O)c(C)c(C(=O)N[C@@H](Cc2ccc3ccccc3c2)[C@H](O)C(=O)N2C[C@@H](Cl)C[C@H]2C(=O)NC(C)(C)C)c1 | IIIB | - | CEM | - | 0.027 µM
CC(C)(C)OC(=O)N[C@@H](Cc1ccccc1)[C@@H](O)C[C@@H](Cc1ccc(OCC(=O)O)cc1)C(=O)N[C@H]1c2ccccc2C[C@H]1O | IIIB | - | H9 | chronic infection | >10 µM
Nc1ncnc2c1ncn2[C@H]1CC[C@@H](CO)O1 | LAV | - | C3 | - | 29 µM
Cc1c(O)cccc1C(=O)N[C@@H](Cc1ccccc1)[C@H](O)C(=O)N1C[C@@H](Cl)C[C@H]1C(=O)NC(C)(C)C | IIIB | - | CEM | - | 0.11 µM
CC(C)(C)NC(=O)[C@@H]1C[C@@H]2CCCC[C@@H]2N1C(=O)[C@@H](O)[C@H](Cc1ccc(O)cc1)NC(=O)[C@H](CC(N)=O)NC(=O)COc1cccc2ccccc12 | RF | - | MT-2 | - | 1.42 µM
NC(=O)c1ncn([C@@H]2O[C@H](CO)[C@@H](O)[C@H]2O)n1 | LAV | - | C3 | - | 178 µM
O=c1[nH]cnc2c1ncn2[C@H]1CC[C@@H](CO)O1 | XM-T69SSS | RT-T69SSS L210W T215Y | PBMC | - | 38 µM
CO[C@H]1/C=C/O[C@@]2(C)Oc3c(C)c(O)c4c(c3C2=O)C(=O)C(SCCOC(=O)CCC(=O)OC[C@H]2O[C@@H](n3cc(C)c(=O)[nH]c3=O)CC2O)=C(NC(=O)/C(C)=C\C=C\[C@H](C)[C@H](O)[C@@H](C)[C@@H](O)[C@@H](C)[C@H](OC(C)=O)[C@@H]1C)C4=O | IIIB | - | C8166 | - | 29 µM
Cc1ccc(-c2ccc3c(c2)C=C(C(=O)Nc2ccc(C[N+](C)(C)C4CCOCC4)cc2)CCC3)cc1 | JR-FL R5 | - | PBMC | - | 0.237 µM
CC(C)c1nc(CN(C)C(=O)N[C@H](C(=O)N[C@@H](Cc2ccccc2)C[C@H](O)[C@H](Cc2ccccc2)NC(=O)OCc2cncs2)C(C)C)cs1 | NL4-3-P22 (PR D30N A71V) | PR-D30N A71V | MT-4 | - | 0.09 µM
CN=C1CN=C(c2ccc[nH]2)c2cc(Cl)ccc2N1 | Ba-L-85 | - | Macrophage | - | 3–6 µM
CC(=O)N1CCC(C(=O)N(CCCN2CCC(Cc3ccc(C(N)=O)cc3)CC2)c2ccc(C)c(Cl)c2)CC1 | HE R5X4 | - | PBMC | - | >10 µM
CC(C)c1c(CO)cn(Cc2ccncc2)c1Sc1cc(Cl)cc(Cl)c1 | - | RT-Y181C | C8166 | - | 1.7 µM
Cc1cn([C@H]2C[C@H](N=[N+]=[N-])[C@@H](CO)O2)c(=O)[nH]c1=O | 6 clinical isolates AZT-resistant | - | PBMC | - | 1.6 µM
CCCCN1C(=O)[C@@H]([C@H](O)C2CCCCC2)NC(=O)C12CCN(Cc1ccc(Oc3ccc(C(=O)O)cc3)cc1)CC2 | BAL R5 | - | PBMC | - | 0.012 µM
CO[C@H]1/C=C/O[C@@]2(C)Oc3c(C)c(O)c4c(c3C2=O)C(=O)C(SCCOC(=O)CCC(=O)OC[C@H]2O[C@@H](n3cc(C)c(=O)[nH]c3=O)C[C@@H]2N=[N+]=[N-])=C(NC(=O)/C(C)=C\C=C\[C@H](C)[C@@H]2OC(C)(C)O[C@@H]([C@@H](C)[C@H](OC(C)=O)[C@@H]1C)[C@@H]2C)C4=O | IIIB | - | C8166 | - | 13 µM
CC(C)(C)NC(=O)[C@H]1N(C(=O)[C@@H](O)[C@H](Cc2ccccc2)NC(=O)[C@H](CC(N)=O)NC(=O)COc2cccc3ccccc23)CSC1(C)C | Clinical isolates | - | PBMC | - | 0.23 µM
CC(C)=CCN1Cc2cc(Cl)cc3[nH]c(=S)n(c23)C[C@@H]1C | IIIB/LAI | - | MT-4 | - | 0.05–0.1 µg/mL
CCOC(=O)P(=O)(OC[C@H]1O[C@@H](n2cc(C)c(=O)[nH]c2=O)C[C@@H]1N=[N+]=[N-])OC1CCCCC1 | GKV-4046 | - | MT-4 | - | 0.031 µM
CCC(c1cc(=O)[nH]c(SC2CCCC2)n1)c1c(F)cccc1F | IIIB | - | MT-4 | - | 0.08 µM
CCOP(=O)(OC[C@H]1O[C@@H](n2cc(C)c(=O)[nH]c2=O)C[C@@H]1N=[N+]=[N-])C(=O)N1CCOCC1 | GKV-4046 | - | MT-4 | - | 0.0021 µM
COc1ccc(S(=O)(=O)N(CC2CCCC2)C[C@@H](O)[C@H](Cc2ccccc2)NC(=O)O[C@H]2CCOC2)cc1 | IIIB | - | CEM + CEM-SS | - | 0.023 µM
CC(C)(C)NC(=O)[C@@H]1C[C@@H]2CCCC[C@@H]2N1C(=O)[C@@H](O)[C@H](Cc1ccccc1)NC(=O)[C@H](CC(N)=O)NC(=O)COc1ccccc1 | RF | - | MT-2 | - | 0.42 µM
CCOP(=O)(OC[C@H]1O[C@@H](n2cc(C)c(=O)[nH]c2=O)C[C@@H]1N=[N+]=[N-])C(=O)NCCc1ccccc1 | GKV-4046 | - | MT-4 | - | 0.0002 µM
Nc1nc2c(ncn2[C@H]2CC[C@@H](CO)O2)c(=O)[nH]1 | LAV | - | C3 | - | 3.3 µM
CCC[C@@]1(CCc2ccccc2)CC(O)=C([C@H](CC)c2cccc(NS(=O)(=O)c3ccc(C(F)(F)F)cn3)c2)C(=O)O1 | 458 clinical isolates delavirdine-resistant | - | PBMC | - | 0.04 µM
Cc1ccnc2c1NC(=O)c1cccnc1N2C1CC1 | MN | - | MT-2 | - | 1 µM
CCc1cc(NCc2nc3c(Cl)ccc(Cl)c3o2)c(=O)[nH]c1C | Clinical isolate (RT K70R) | RT-K70R | PBMC | - | 0.2 µM
CCCc1c([Se]c2ccccc2)n(COCC)c(=O)[nH]c1=O | Cat #3 strain | - | MT-2 | - | >1 µM
CC(C)=CCOc1cc(NC(=S)c2ccoc2C)ccc1Cl | IIIB | - | MT-2 | - | 0.02716 µg/mL
Nc1ccn([C@@H]2CS[C@H](CO)O2)c(=O)n1 | Subtype B isolate | - | PBMC | - | 0.05 µM

a–b is a range or a potency band. Neighbouring rows are from separate reports. ECn is the concentration giving n% inhibition of infection, replication or growth.